Pooled drug test results. Numbers come from NIAID ChemDB, via PubChem.

Common to all: growth or infection tests; species: Mycobacterium avium; read-out: MIC

Blank or dashed fields: not listed here. Two numbers with a dash give a range or band. Rows are shuffled and stem from different studies.

NC(=O)c1cnccn1 ; strain: ATCC 25291 ; value: >200 µg/mL
CCCCCCCc1ccc(NC(=O)c2cc(Br)ccc2O)cc1 ; strain: MY330/88 ; value: 8 µM
CC(C)(C)Sc1ccnc(C(N)=S)c1 ; strain: 80/72 ; value: 250 µM
CCC(C)S/C(N)=N/N=C/c1ccncc1 ; strain: CNCTC D5/93 ; value: 250 µM
Cc1cc(NC(=O)c2ccc(Cl)cc2O)no1 ; strain: MY330/88 ; value: 125 µM
CCCCCCCCCCCCCCCCCCCCCCC(=O)NC(C)(CCC(=O)O)CCC(=O)O ; strain: VA14 ; value: 36 µg/mL
CCOC(=O)c1c(-c2ccco2)csc1NC(C)=O ; strain: CNCTC MY330/88 ; value: >1000 µM
C=C1C(=O)O[C@@H]2/C=C(\C)CC/C=C(\C)CC[C@@H]12 ; value: 128 µg/mL
CCCCS(=O)(=O)NC[C@H]1O[C@H](O[C@H]2O[C@H](CNS(=O)(=O)CCC)[C@@H](O)[C@H](O)[C@H]2O)[C@H](O)[C@@H](O)[C@@H]1O ; strain: NJ211 ; value: >128 µg/mL
CCCCCCCCc1ccc(NC(=O)c2cc(Br)ccc2O)cc1 ; strain: MY330/88 ; value: 8 µM
Cc1ccc(C(=O)Nc2cnccn2)c(O)c1 ; strain: MY330/88 ; value: 62.5 µM
CCCCCCCCCOc1ccccc1NC(=O)OCCN(C)C ; strain: MY330/88 ; value: 16 µM
CCCCCCCCCCCCN(CCCCCCCCCCCC)C[C@H]1O[C@H](O[C@H]2O[C@H](CN(CCCCCCCCCCCC)CCCCCCCCCCCC)[C@@H](O)[C@H](O)[C@H]2O)[C@H](O)[C@@H](O)[C@@H]1O ; strain: NJ3009 ; value: >128 µg/mL
COc1ccc2c(=O)n(-c3ccc(C)cc3)c(=O)oc2c1 ; strain: CNCTC MY330/88 ; value: 62.5 µM
Cc1nc2scc(-c3ccco3)c2c(=O)n1/N=C/c1ccc(F)cc1 ; strain: CNCTC MY330/88 ; value: 12 µM
CCCCCCCCS(=O)(=O)NC[C@H]1O[C@H](O[C@H]2O[C@H](CNS(=O)(=O)CCCCCCCC)[C@@H](O)[C@H](O)[C@H]2O)[C@H](O)[C@@H](O)[C@@H]1O ; strain: NJ3009 ; value: 32–64 µg/mL
Cc1nc2scc(-c3ccco3)c2c(=O)n1/N=C/c1ccc(F)cc1F ; strain: CNCTC MY330/88 ; value: 5 µM
CCS/C(N)=N/N=C/c1ccc2ccccc2n1.CCS/C(N)=N/N=C/c1ccc2ccccc2n1 ; strain: CNCTC MY80/72 ; value: 63 µM
CCCCCCCOc1ccc(NC(=O)OCCN2CCCCC2)cc1 ; strain: MY330/88 ; value: 16 µM
O=C(/C=C/c1ccccc1)Nc1ccc(Cn2ccnc2)cc1 ; strain: 103317 ; value: >16 µg/mL
CCCCOc1cccc(NC(=O)OC(C)CN2CCCCC2)c1 ; strain: MY330/88 ; value: 125 µM
CC(C)N=c1cc2n(-c3ccc(Cl)cc3)c3ccccc3nc-2cc1Nc1ccc(Cl)cc1 ; strain: 18698 ; value: 0.7 µg/mL
CCCCCCCCc1ccc(NC(=O)c2ccc(Cl)cc2O)cc1 ; strain: MY330/88 ; value: 16 µM
CCCCCCOc1cccc(NC(=O)OCCN2CCCCC2)c1 ; strain: MY330/88 ; value: 32 µM
CC(=O)NC[C@H]1CN(c2ccc(N3CCN(c4ccc([N+](=O)[O-])s4)CC3)c(F)c2)C(=O)O1 ; strain: AIIMS ; value: 0.25 µg/mL
O=C(Nc1ccc(CN2CCOCC2)cc1)c1ccc(Cl)cc1 ; strain: 103317 ; value: >16 µg/mL
CCCCCCc1ccc(NC(=O)c2cc(Br)cc(Br)c2O)cc1 ; strain: MY330/88 ; value: 62.5 µM
CN1CCN(Cc2ccccc2NC(=O)c2ccc(-c3ccccc3)cc2)CC1 ; strain: 103317 ; value: >16 µg/mL
O=c1oc2ccc(Cl)cc2c(=O)n1-c1cccc([N+](=O)[O-])c1 ; strain: CNCTC MY330/88 ; value: 16 µM
O=C(Nc1cncc(Cl)n1)c1ccccc1O ; read by: resazurin ; value: >100 µg/mL
CCS/C(N)=N/N=C/c1ccc2cc(Cl)ccc2n1 ; strain: CNCTC MY66/72 ; value: 16 µM
O=C(Nc1ccc(F)cc1)c1cc(Br)ccc1O ; strain: CNCTC MY330/88 ; value: 31 µM
CCCCCCCS/C(N)=N/N=C/c1ccc2ccccc2n1 ; strain: CNCTC MY66/72 ; value: 4 µM
CO[C@H]1/C=C/O[C@@]2(C)Oc3c(C)c(O)c4c(O)c(cc(O)c4c3C2=O)NC(=O)/C(C)=C\C=C\[C@H](C)[C@H](O)[C@@H](C)[C@@H](O)[C@@H](C)[C@H](OC(C)=O)[C@@H]1C ; strain: Firenze 10 ; value: 0.1 µg/mL
O=C(Nc1ccc(CN2CCOCC2)cc1)c1ccc(-c2ccccc2)cc1 ; strain: 103317 ; value: >16 µg/mL
Cc1ccc(-n2c(=O)oc3ccc([N+](=O)[O-])cc3c2=O)cc1 ; strain: CNCTC MY330/88 ; value: 250 µM
NC(=S)c1cnccn1 ; strain: ATCC 25291 ; value: >200 µg/mL
COc1cccc(NC(=O)OCCN2CCCCC2)c1 ; strain: MY330/88 ; value: >1000 µM
CCCCc1ccc(NC(=O)c2cc(Br)ccc2O)cc1 ; strain: MY330/88 ; value: 16 µM
O=C(Nc1cncs1)c1ccc(Cl)cc1O ; strain: MY330/88 ; value: 250 µM
CCCc1ccc(NC(=O)c2ccc(Cl)cc2O)cc1 ; strain: MY330/88 ; value: 8 µM
CCCCCCCCNC[C@H]1O[C@H](O[C@H]2O[C@H](CNCCCCCCCC)[C@@H](O)[C@H](O)[C@H]2O)[C@H](O)[C@@H](O)[C@@H]1O ; strain: NJ211 ; value: 2 µg/mL
CN(C)c1ccc(NC(=O)c2cc([N+](=O)[O-])ccc2O)cc1 ; strain: CNCTC MY330/88 ; value: 1000 µM
CCCCCCCN(CCCCCCC)C(=O)NC(CCC(=O)O)(CCC(=O)O)CCC(=O)O ; strain: VA14 ; value: 36 µg/mL
CCc1cc(C(N)=S)ccn1 ; value: 10 µg/mL
CCCCCCCCc1ccc(NC(=O)c2cc(Cl)ccc2O)cc1 ; strain: MY330/88 ; value: 8 µM
O=C(c1ccc(-c2ccc(Br)cc2)cc1)c1ccc([N+](=O)[O-])cc1 ; value: 1309 µM
CCSc1ccnc(C(N)=S)c1 ; strain: 80/72 ; value: 250 µM
O=C(c1ccc(I)cc1)c1ccc(-c2ccc(Br)cc2)cc1 ; value: 539 µM
Cc1ccc(-n2c(=O)oc3ccc(F)cc3c2=O)cc1 ; strain: CNCTC MY330/88 ; value: 31 µM
NC[C@H]1O[C@H](O[C@H]2O[C@H](CN)[C@@H](O)[C@H](O)[C@H]2O)[C@H](O)[C@@H](O)[C@@H]1O ; strain: NJ168 ; value: >128 µg/mL
CCc1cc(C(N)=S)ccn1 ; strain: 3350-4 ; value: 5 µg/mL
CCCCCCCCCCCCC(CCCCCCCCCCCC)NC(=O)NC(CCC(=O)O)(CCC(=O)O)CCC(=O)O ; strain: VA14 ; value: 36 µg/mL
O=C(Nc1ccc(Cn2ccnc2)cc1)c1ccc(-c2ccccc2)cc1 ; strain: 103317 ; value: >16 µg/mL
O=C(Nc1cnccn1)c1cc(F)ccc1O ; strain: MY330/88 ; value: 125 µM
COc1ccc(-n2c(=O)oc3ccc(F)cc3c2=O)cc1 ; strain: CNCTC MY330/88 ; value: 31 µM
CCCOc1ccc(NC(=O)OCCN(C)C)cc1 ; strain: MY330/88 ; value: 500 µM
CCCCCCCC(CCCCCCC)NC(=O)NC(CCC(=O)O)(CCC(=O)O)CCC(=O)O ; strain: VA14 ; value: 72 µg/mL
CCCCCCCOc1cccc(NC(=O)OCCN2CCCCC2)c1 ; strain: MY330/88 ; value: 32 µM
CCCCCCCCN(CCCCCCCC)C(=O)NC(CCC(=O)O)(CCC(=O)O)CCC(=O)O ; strain: VA14 ; value: 23 µg/mL
CN1CCN(Cc2ccc(NC(=O)c3ccc(-c4ccccc4)cc3)cc2)CC1 ; strain: 103317 ; value: >16 µg/mL
CCCCC(CC)CN(CC(CC)CCCC)C[C@H]1O[C@H](O[C@H]2O[C@H](CN(CC(CC)CCCC)CC(CC)CCCC)[C@@H](O)[C@H](O)[C@H]2O)[C@H](O)[C@@H](O)[C@@H]1O ; strain: NJ168 ; value: 128 µg/mL
CCCCCOc1ccc(NC(=O)OC(C)CN2CCCCC2)cc1 ; strain: MY330/88 ; value: 32 µM
Cc1cc(NC(=O)c2cc(I)ccc2O)no1 ; strain: MY330/88 ; value: 250 µM
C=C1C(=O)O[C@@H]2/C=C(\C)CC[C@H]3OC3(C)CC[C@@H]12 ; value: 128 µg/mL
O=C(/C=C/c1ccccc1)Nc1cccc(Cn2ccnc2)c1 ; strain: 103317 ; value: >16 µg/mL
CCS/C(N)=N/N=C/c1nc2ccccc2o1 ; strain: CNCTC D5/93 ; value: 63 µM
Cc1ccc2oc(=O)n(-c3ccccc3)c(=O)c2c1 ; strain: CNCTC MY330/88 ; value: 62.5 µM
CCCCOc1cccc(NC(=O)OC(COCC)CN2CCCCC2)c1 ; strain: MY330/88 ; value: 62.5 µM
Cc1nc2scc(-c3ccco3)c2c(=O)n1NC(=O)c1cccs1 ; strain: CNCTC MY330/88 ; value: 45 µM
O=C(Nc1cccc(F)c1)c1cc(Br)ccc1O ; strain: CNCTC MY330/88 ; value: 31 µM
CCOc1ccc(NC(=O)OCCN(C)C)cc1 ; strain: MY330/88 ; value: 1000 µM
CS/C(N)=N/N=C/c1ccc2ccccc2n1 ; strain: CNCTC MY80/72 ; value: 1000 µM
COC(=O)c1ccc(C(=O)c2ccc(-c3ccc(Br)cc3)cc2)cc1 ; value: 316 µM
CCCCCCCCCCCCCCCCSc1ccnc(C(N)=S)c1 ; strain: 80/72 ; value: 2000 µM
Cc1nc2scc(-c3ccco3)c2c(=O)n1/N=C/c1ccc([N+](=O)[O-])cc1 ; strain: CNCTC MY330/88 ; value: 6 µM
CCCCCCCCCCCCNC[C@H]1O[C@H](O[C@H]2O[C@H](CNCCCCCCCCCCCC)[C@@H](O)[C@H](O)[C@H]2O)[C@H](O)[C@@H](O)[C@@H]1O ; strain: NJ3404 ; value: 8 µg/mL

Repeating the final 7 entries:

compound | strain | read by | value
O=C(Nc1cccc(F)c1)c1cc(Br)ccc1O | CNCTC MY330/88 |  | 31 µM
CCOc1ccc(NC(=O)OCCN(C)C)cc1 | MY330/88 |  | 1000 µM
CS/C(N)=N/N=C/c1ccc2ccccc2n1 | CNCTC MY80/72 |  | 1000 µM
COC(=O)c1ccc(C(=O)c2ccc(-c3ccc(Br)cc3)cc2)cc1 |  |  | 316 µM
CCCCCCCCCCCCCCCCSc1ccnc(C(N)=S)c1 | 80/72 |  | 2000 µM
Cc1nc2scc(-c3ccco3)c2c(=O)n1/N=C/c1ccc([N+](=O)[O-])cc1 | CNCTC MY330/88 |  | 6 µM
CCCCCCCCCCCCNC[C@H]1O[C@H](O[C@H]2O[C@H](CNCCCCCCCCCCCC)[C@@H](O)[C@H](O)[C@H]2O)[C@H](O)[C@@H](O)[C@@H]1O | NJ3404 |  | 8 µg/mL